Compound potency records, mixed from different reports. Data source: NIAID ChemDB in PubChem.

Shared fields: growth or infection tests; agent: Hepatitis C virus; endpoint: EC50

An empty or dashed field is not shown.

structure | strain or isolate | mutations | cell line | method | setting | value
O=C1Nc2ncn(Cc3ccccc3)c2C(=O)N(Cc2ccccc2)N1 | - | - | HepG2.2.15 | cytopathic effect | - | >500 µM
CCN(CC)CCN1C(=O)c2cccc3cc(N)cc(c23)C1=O | JFH-1 | - | Huh7-1 | PCR | - | 16.4 µM
C[C@@H]1CC[C@H]2[C@@H](C)C(=O)O[C@@H]3OC4(C)CC[C@@H]1[C@]32OO4 | - | - | HuH6 | replicon | - | 14 µM
C[C@@]1(O)[C@H](O)[C@@H](CO)O[C@H]1c1ccc2c(N)ncnn12 | GT4a | - | Huh7.5 | PCR | - | 0.88 µM
CC1(C)C=Cc2c(ccc3c2OC[C@@H](c2ccc(O)cc2O)C3)O1 | 2a | - | Huh7.5 | microscopy / fluorescence | - | 6.2 µg/mL
CNC(=O)c1c(-c2ccc(F)cc2)oc2cc(N(CCO)S(C)(=O)=O)c(C3CC3)cc12 | GT3a | - | Huh7.5 | luciferase / replicon | - | 0.0399 µM
NC(=O)c1ncn([C@@H]2O[C@H](CO)[C@@H](O)[C@H]2O)n1 | JFH-1 | - | Huh7.5.1 | luciferase / replicon | - | >10 µM
C[C@@]1(O)[C@H](O)[C@@H](CO)O[C@H]1n1cnc2c(N)ncnc21 | 4a | - | Huh7 | luciferase | - | 0.2096 µM
CC[C@H](NC(=O)c1c(C)c(-c2ccccc2)nc2ccccc12)c1ccccc1 | - | - | n4mBid | luminescence | - | 6.6 µM
C[C@H]1CCC2[C@@H](C)C(=O)N(CCC(=O)N(CC(=O)NCc3ccccc3)Cc3ccccc3)C3O[C@]4(C)CCC1[C@@]23OO4 | - | - | Huh 5-2 | replicon | - | 3 µM
CN1CCN(CCCN2c3ccccc3Sc3ccc(Cl)cc32)CC1 | - | - | n4mBid | luminescence | - | 4.2 µM
NC(=O)c1nn(Cc2cccc(NC(=O)c3ccco3)c2)c2ccccc12 | J399EM | - | Huh7.5.1 | fluorescence | - | 0.674 µM
CCC[C@H](NC(=O)[C@@H]1[C@H]2CCC[C@H]2CN1C(=O)[C@@H](NC(=O)[C@@H](NC(=O)c1cnccn1)C1CCCCC1)C(C)(C)C)C(=O)C(=O)NC1CC1 | 1b A156S | - | - | luciferase | - | >10 µM
CCC[C@H](NC(=O)[C@@H]1[C@H]2CCC[C@H]2CN1C(=O)[C@@H](NC(=O)[C@@H](NC(=O)c1cnccn1)C1CCCCC1)C(C)(C)C)C(=O)C(=O)NC1CC1 | genotype 1b | Y93H | Huh7.5 | luciferase / reporter gene | - | 0.1594 µM
COc1c(C)c2c(c(O)c1CC(=O)O)C(=O)OC2 | J399EM | - | Huh7.5.1 | GFP / fluorescence | - | 0.52 µM
COc1ccccc1C(=O)Nc1cccc(Cn2nc(C(N)=O)c3ccccc32)c1 | J399EM | - | Huh7.5.1 | fluorescence | - | 0.603 µM
C=C[C@H]1CN2CC[C@H]1C[C@@H]2[C@@H](O)c1ccnc2ccc(OC)cc12 | - | - | n4mBid | luminescence | - | 4.2 µM
CC(C)CN(CC(=O)NC1CCCCC1)C(=O)CCN1C(=O)[C@H](C)C2CC[C@H](C)C3CC[C@]4(C)OO[C@]32C1O4 | - | - | Huh 5-2 | replicon | - | 4 µM
CCCCCCCCCCCCNc1nc(=O)c2ncn([C@@H]3C[C@H](O)[C@@H](CO)O3)c2c(=O)[nH]1 | - | - | HepG2.2.15 | cytopathic effect | - | >500 µM
[N-]=[N+]=N[C@]1(CO)O[C@@H](n2ccc(N)nc2=O)[C@H](O)[C@@H]1O | - | - | HuH6 | PCR | - | >33 µM
C[C@@]1(O)[C@H](O)[C@@H](CO)O[C@H]1n1cnc2c(N)ncnc21 | - | - | Huh7 | - | 48 h | 0.17 µM
COc1ccc(NC(=O)c2ccc(-c3ccc(-c4noc(C)n4)cc3C)cc2)cc1N1CCN(C)CC1 | - | - | n4mBid | luminescence | - | 1.6 µM
CC1(O)C(O)C(CO)OC1n1cnc2c(N)ncnc21 | GT1b | - | 1C | luciferase | - | 0.086 µM
COC(=O)N[C@H](C(=O)N1CCC[C@H]1c1ncc(-c2ccc(-c3ccc(-c4cnc([C@@H]5CCCN5C(=O)[C@@H](NC(=O)OC)C(C)C)[nH]4)cc3)cc2)[nH]1)C(C)C | JFH-1 | - | Huh7.5.1 | luciferase / replicon | - | 0.000078 µM
CN(C)CC(C)(C)CN1c2ccccc2Sc2ccccc21.Cl | JFH-1 | - | Huh7-1 | PCR | - | 6.9 µM
COc1c(CC=C(C)C)c(O)cc2oc(=O)c(-c3ccc(O)cc3O)cc12 | 2a | - | Huh7.5 | microscopy / fluorescence | - | 8.8 µg/mL
C[C@@]1(O)[C@H](O)[C@@H](CO)O[C@H]1n1cnc2c(N)ncnc21 | GT3a | - | Huh7-Lunet | luciferase | - | 0.192 µM
CC(=N/O)/C(C)=N/O | sg1b | - | Huh7-1 | PCR | - | 3.82 µM
C[C@H]1CCC2[C@@H](C)C(=O)N(CCC(=O)N(CC(=O)NC3CCCCC3)C(C)(C)C)C3O[C@]4(C)CCC1[C@@]23OO4 | - | - | Huh 5-2 | replicon | - | 6 µM
O=C1Nc2nc[nH]c2C(=O)N(Cc2ccccc2)N1 | - | - | HepG2.2.15 | cytopathic effect | - | >500 µM
CCC[C@H](NC(=O)[C@@H]1[C@H]2CCC[C@H]2CN1C(=O)[C@@H](NC(=O)[C@@H](NC(=O)c1cnccn1)C1CCCCC1)C(C)(C)C)C(=O)C(=O)NC1CC1 | GT3a | P89L K583E | 1C | luciferase | - | 2.217 µM
CC1(C)[C@@H](O)CC[C@]2(C)[C@H]3C(=O)C=C4[C@@H]5C[C@@](C)(C(=O)O)CC[C@]5(C)CC[C@@]4(C)[C@]3(C)CC[C@@H]12 | 2a | - | Huh7.5 | microscopy / fluorescence | - | 40 µg/mL
COc1cc([C@@H]2Oc3cc([C@H]4Oc5cc(O)cc(O)c5C(=O)[C@@H]4O)ccc3O[C@H]2CO)ccc1O | 1b | - | - | - | - | 80 µM
CCOC(=O)C1=C(C)NC(C)=C(C(=O)OC)C1c1cccc(Cl)c1Cl | - | - | n4mBid | luminescence | - | 9.5 µM
Nc1nc(=O)c2ncn(COCCO)c2c(=O)[nH]1 | - | - | HepG2.2.15 | cytopathic effect | - | >500 µM
C[C@@]1(O)[C@H](O)[C@@H](CO)O[C@H]1n1cnc2c(N)ncnc21 | 4a ED43 | - | Huh7 replicon | luciferase | - | 0.16 µM
COC(=O)N[C@H](C(=O)N1CCC[C@H]1c1ncc(-c2ccc(-c3ccc(-c4cnc([C@@H]5CCCN5C(=O)[C@@H](NC(=O)OC)C(C)C)[nH]4)cc3)cc2)[nH]1)C(C)C | GT1b | - | 1C | luciferase | - | 0.00004 µM
COc1cc2oc(=O)c(-c3ccc(O)cc3O)cc2c(OC)c1CC=C(C)C | 2a | - | Huh7.5 | microscopy / fluorescence | - | 7.2 µg/mL
O=c1c(O)c(-c2ccc(O)c(O)c2)oc2cc(O)c(O)c(O)c12 | 1b | - | Huh7.5 | PCR | - | 5.4 µM
COc1cccc(C(=O)Nc2cccc(Cn3nc(C(N)=O)c4ccccc43)c2)c1 | J399EM | - | Huh7.5.1 | fluorescence | - | 0.346 µM
CCCCCCCCCCCCNc1nc(=O)c2ncn([C@@H]3O[C@H](CO)[C@@H](O)[C@H]3O)c2c(=O)[nH]1 | - | - | HepG2.2.15 | cytopathic effect | - | >500 µM
COc1ccc2c(O[C@@H]3C[C@H]4C(=O)N[C@]5(C(=O)NS(=O)(=O)C6CC6)C[C@H]5/C=C\CCCCN(C)C(=O)[C@@H]4C3)cc(-c3nc(C(C)C)cs3)nc2c1C | JFH1Res | L1062M R1181K | Huh7.5 | antigen | - | 2.164 µM
Fc1ccccc1-c1nc2ccn(Cc3ccc(-c4ccc(C(F)(F)F)cc4C(F)(F)F)nn3)cc-2n1 | GT3a | - | Huh7.5 | luciferase / replicon | - | 2.629 µM
CC(C)n1c(/C=C/[C@@H](O)C[C@@H](O)CC(=O)O)c(-c2ccc(F)cc2)c2ccccc21 | - | - | Huh 9-13 | luciferase / replicon | - | 4.2 µM
COc1ccc2c(O[C@@H]3C[C@H]4C(=O)N[C@]5(C(=O)O)C[C@H]5/C=C\CCCCC[C@H](NC(=O)OC5CCCC5)C(=O)N4C3)cc(-c3csc(NC(C)C)n3)nc2c1 | - | - | HuH6 | PCR | - | >22 µM
CC1CCC(C(=O)N(c2cc(C#CC(C)(C)C)sc2C(=O)O)C2CCC(O)CC2)CC1 | Con1 | - | 1C | luciferase | - | 0.017 µM
CC(C)CN(CC(=O)NCc1ccccc1)C(=O)CCN1C(=O)[C@H](C)C2CC[C@H](C)C3CC[C@]4(C)OO[C@]32C1O4 | - | - | Huh 5-2 | replicon | - | 5 µM
O=C(O)c1ccc2c(c1)nc(-c1ccc(OCc3cc(N4CCCC4=O)ccc3-c3ccc(Cl)cc3)cc1F)n2C1CCCCC1 | GT3a | - | Huh7.5 | luciferase / replicon | - | 1.508 µM
Nc1nc(=O)c2[nH]cnc2c(=O)[nH]1 | - | - | HepG2.2.15 | cytopathic effect | - | >500 µM
COc1c(CC=C(C)C)c(O)cc2oc(=O)c3c(c12)Cc1cc(O)ccc1-3 | 2a | - | Huh7.5 | microscopy / fluorescence | - | 4.6 µg/mL
CC(C)(C)OC(=O)N[C@@H]1CCCCC/C=C\[C@@H]2C[C@@]2(C(=O)NS(=O)(=O)C2CC2)NC(=O)[C@@H]2C[C@@H](OC(=O)N3Cc4cccc(F)c4C3)CN2C1=O | JCH4 | - | Huh7.5 | antigen | - | 0.097 µM
CC(=O)Nc1ccc(-c2ccc(Cl)cc2)c(COc2ccc(-c3nc4cc(C(=O)O)ccc4n3C3CCCCC3)cc2)c1 | - | - | H77 | luciferase | - | 0.1093 µM
CC(C)(C)NC(=O)N[C@H](C(=O)N1C[C@H]2[C@@H]([C@H]1C(=O)NC(CC1CCC1)C(=O)C(N)=O)C2(C)C)C(C)(C)C | GT1b | - | 1C | luciferase | - | 0.204 µM
COc1ccc([C@H]2Oc3ccc([C@H]4Oc5cc(O)cc(O)c5C(=O)[C@@H]4O)cc3O[C@@H]2CO)cc1O | 1b | - | - | - | - | 40 µM
NC(=O)c1nn(Cc2cccc(NC(=O)c3ccccc3F)c2)c2ccccc12 | J399EM | - | Huh7.5.1 | fluorescence | - | 0.115 µM

Again, the opening 3 rows:

O=C1Nc2ncn(Cc3ccccc3)c2C(=O)N(Cc2ccccc2)N1 ; cell line: HepG2.2.15 ; method: cytopathic effect ; value: >500 µM
CCN(CC)CCN1C(=O)c2cccc3cc(N)cc(c23)C1=O ; strain or isolate: JFH-1 ; cell line: Huh7-1 ; method: PCR ; value: 16.4 µM
C[C@@H]1CC[C@H]2[C@@H](C)C(=O)O[C@@H]3OC4(C)CC[C@@H]1[C@]32OO4 ; cell line: HuH6 ; method: replicon ; value: 14 µM

ECn: concentration that inhibits the pathogen or its effect by n%. Neighbouring rows are from separate reports.